PubChem BioAssay AID504761 | Drosophila RNAi Screening Center | 2011
The screen tested about 22,000 reagents; shown is a random part of those that have a named target and a result. Of all reagents, 116 (0.52%) got an active call. 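Calls depend on retest data that are not deposited; infection was ranked per plate without normalising between plates; the unit of the infection score is not given.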 Raw values are not corrected between plates. A plus sign joins genes that one reagent is predicted to hit. Further read-outs or replicates are left out here. The record does not give: the amount of reagent, the time to read-out.

- Aim: 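Insect host genes that dengue virus relies on to spread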 (primary screen)
- System: D.Mel-2 cells from Drosophila
- Reagent: long dsRNA against Drosophila genes
- Conditions: infection with dengue virus type 2; dose and infection time not stated
- Read-out: 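Cells stained for dengue envelope protein and imaged; percent of infected cells per well on duplicate plates, ranked by infection, with stained nuclei counted for cell number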
- Scale: infection score: higher = more virus-infected cells; cell count: higher = more cells in the well
- Rule for the call: 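Very low infection ranking in both replicate wells (chance probability at most 0.065), then a retest showing infection dropped 1.5-fold or more at p below 0.05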
- Meaning of the calls: active = confirmed: knock-down lowers infection; inactive = not picked or not confirmed

For CG7544 [DRSC07023], the entry reads infection score, replicate 1 = 10.1; cell count, replicate 1 = 6485; inactive.
Depletion of EMC6 (ER membrane protein complex subunit 6) [DRSC14386] resulted in: infection score, replicate 1 = 0.87; cell count, replicate 1 = 6089; inactive.
Silencing of CG3534 [DRSC15494] gave: infection score, replicate 1 = 14.9; cell count, replicate 1 = 5524; inactive.
After knock-down of CG3534 [DRSC26023] the results were infection score, replicate 1 = 3.83; cell count, replicate 1 = 5763; inactive.
CG15708 [DRSC06579] gave infection score, replicate 1 = 5.65; cell count, replicate 1 = 1629; inactive.
TTLL15 (Tubulin tyrosine ligase-like 15) [DRSC15543] showed infection score, replicate 1 = 2.08; cell count, replicate 1 = 5958; inactive.
Against CG17985 [DRSC06702], the entry reads infection score, replicate 1 = 3.51; cell count, replicate 1 = 6844; inactive.
After knock-down of Cpr35B (Cuticular protein 35B) [DRSC01949], the record shows infection score, replicate 1 = 3.75; cell count, replicate 1 = 6099; inactive.
Knock-down of Cpr35B (Cuticular protein 35B) [DRSC22797] came out at: infection score, replicate 1 = 2.36; cell count, replicate 1 = 5547; inactive.
Against Cpr35B (Cuticular protein 35B) [DRSC26431], the entry reads infection score, replicate 1 = 4.07; cell count, replicate 1 = 5891; inactive.
With knock-down of Zasp52 (Z band alternatively spliced PDZ-motif protein 52) [DRSC06269], the screen gave infection score, replicate 1 = 8.96; cell count, replicate 1 = 6151; inactive.
Zasp52 (Z band alternatively spliced PDZ-motif protein 52) [DRSC07121] gave infection score, replicate 1 = 7.72; cell count, replicate 1 = 7216; inactive.
With knock-down of CG13578 [DRSC04214], the record shows infection score, replicate 1 = 0.85; cell count, replicate 1 = 6258; inactive.
Depletion of CG6678 [DRSC16092] came out at: infection score, replicate 1 = 3.47; cell count, replicate 1 = 6231; inactive.
CG6678 [DRSC27398] showed infection score, replicate 1 = 25.8; cell count, replicate 1 = 6180; inactive.
With knock-down of Hsp70Bc (Heat shock protein 70 Bc) [DRSC16053], the record shows infection score, replicate 1 = 2.17; cell count, replicate 1 = 6400; inactive.
Silencing of Traf4 (TNF-receptor-associated factor 4) [DRSC00445] came out at: infection score, replicate 1 = 1.7; cell count, replicate 1 = 6511; inactive.
For Traf4 (TNF-receptor-associated factor 4) [DRSC00794] the deposit lists infection score, replicate 1 = 7.04; cell count, replicate 1 = 6333; inactive.
Silencing of CG17169 [DRSC20905] resulted in: infection score, replicate 1 = 7.29; cell count, replicate 1 = 4923; inactive.
CG31975 + ovm [DRSC00323] showed infection score, replicate 1 = 2.62; cell count, replicate 1 = 6413; inactive.
For CG1503 [DRSC20512] the deposit lists infection score, replicate 1 = 3.52; cell count, replicate 1 = 6355; inactive.
